Anti-infective test results gathered from many reports (values: NIAID ChemDB through PubChem).

All rows: growth or infection tests; agent: Sindbis virus; read by: cytopathic effect; endpoint: EC50

ECn is the concentration giving n% inhibition of infection, replication or growth. Lines come from different laboratories, so protocols vary. Blank or dashed fields: not listed here.

smiles	cell line	result
Nc1ccn([C@@H]2C[C@H](CO)[C@@H](O)[C@H]2O)c(=O)n1	VERO	0.7 µg/mL
Nc1nc(Cl)c2ncn(C[C@H]3CC[C@@H](CO)C3)c2n1	VERO	>40 µg/mL
Nc1ncnc2c1ncn2C[C@@H](CO)OCP(=O)(O)O		>50 µM
CC(C)[Si]1(C(C)C)OC[C@H]2O[C@@H](n3cnc4cc(Cl)c(Cl)cc43)[C@H](O)[C@H]2O[Si](C(C)C)(C(C)C)O1	HeLa	>10 µg/mL
NC(=O)c1ccnc([C@@H]2O[C@H](CO)[C@@H](O)[C@H]2O)c1	VERO	>400 µg/mL
O=[N+]([O-])c1cc(Cl)c(Cl)cc1[N+](=O)[O-]	HeLa	>4 µg/mL
Cc1cn([C@H]2C[C@@H]3OC[C@H]2[C@@H]3CO)c(=O)[nH]c1=O	VERO	>400 µg/mL
Nc1ncnc2c1ncn2C[C@@H](O)[C@H](O)C(=O)O	VERO	>400 µg/mL
Cc1cn([C@H]2C[C@@H](CO)[C@H](O)C2)c(=O)[nH]c1=O	VERO	>400 µg/mL
Nc1ncnc2c1ncn2C1CC(CO)[C@@H](O)[C@H]1O	VERO	≥4 µg/mL
OC[C@H]1O[C@@H](n2cnc3cc(Cl)c(Cl)cc32)[C@H](O)[C@@H]1O	HeLa	>10 µg/mL
Cc1cn([C@@H]2C[C@H](CO)[C@H](O)C2)c(=O)[nH]c1=O	VERO	>200 µg/mL
Clc1cc2nc[nH]c2cc1Cl	HeLa	>10 µg/mL
Nc1ncnc2c1ncn2CCOCP(=O)(O)O		>185 µM
Nc1nccc2c1ncn2[C@@H]1C[C@H](CO)[C@@H](O)[C@H]1O	VERO	>400 µg/mL
Nc1ncnc2c([C@@H]3O[C@H](CO)C[C@H]3O)[nH]nc12	VERO	400 µg/mL
C[C@H](Cn1cnc2c(N)ncnc21)OCP(=O)(O)O		>525 µM
Nc1nccc2c1ncn2[C@@H]1C[C@H](CO)[C@@H](O)[C@H]1O	VERO	200 µg/mL
Cc1cn([C@@H]2CC[C@H](CO)C2)c(=O)[nH]c1=O	VERO	>400 µg/mL
Nc1nc2c(ncn2C[C@H]2CC[C@@H](CO)C2)c(=O)[nH]1	VERO	>200 µg/mL
Nc1nccc2c1ncn2[C@@H]1O[C@H](CO)[C@@H](O)[C@H]1O	VERO	≥40 µg/mL
OC[C@H]1O[C@@H](n2cnc3cc(Cl)c(Cl)cc32)[C@H](O)[C@H]1O	HeLa	>100 µg/mL
Nc1ncnc2c1ncn2C[C@H](O)CO	VERO	>400 µg/mL
Nc1nccc2c1ncn2[C@@H]1O[C@H](CO)[C@@H](O)[C@H]1O	VERO	≥40 µg/mL
Nc1nc(N)c2ncn(C[C@H]3CC[C@@H](CO)C3)c2n1	VERO	>200 µg/mL
C/C=C/Cc1cn([C@@H]2O[C@H](CO)[C@@H](O)[C@H]2O)c2ncnc(N)c12	VERO	40 µg/mL
Nc1ncnc2c1ncn2[C@@H]1C=C[C@@H](O)[C@H]1O	VERO	>400 µg/mL
O=c1[nH]c(=O)n([C@H]2C[C@H](O)[C@@H](CO)O2)cc1/C=C/Br	VERO	>400 µg/mL

A second listing of 2 rows from above:

{"smiles": "Clc1cc2nc[nH]c2cc1Cl", "cell line": "HeLa", "result": ">10 µg/mL"}
{"smiles": "O=[N+]([O-])c1cc(Cl)c(Cl)cc1[N+](=O)[O-]", "cell line": "HeLa", "result": ">4 µg/mL"}